{"source": "patent US7655216B2", "about": "“Vaccine for activating helper function of CD8+ Tcells” (University of Pittsburgh - Of the Commonwealth of Higher …, priority 2007, dated 2010)", "system": "SEB loaded DCs", "conditions": "effector-type CD8+ T cells with perforin/GrB pathway blocked (CMA 100 nM), 48 hours co-culture; then J558-CD40L stimulation, ELISA"}
{"substance": "Concanamycin A", "values": [{"measurement": "IL-12p70 production by DCs", "value": "enhanced ability to produce IL-12p70"}]}
